Results of unrelated studies side by side (data: NIAID ChemDB).

Shared fields: whole-cell or culture tests; organism: Mycobacterium tuberculosis

An empty or dashed field is not shown. MIC bound: limit read from a one-dose screen. Percent inhibition refers to the dose given; in toxicity tests it is the harm to the cells. Lines come from different laboratories, so protocols vary.

structure	strain	cell line	read by	endpoint	dose	value
Nc1ccc2cc(S(=O)(=O)O)cc(S(=O)(=O)O)c2c1N	H37Rv			MIC		100 µg/mL
CCCCCCCCCCCNCCNCc1ccc(C(F)(F)F)cc1				MIC		25 µM
O=C(N=Nc1c(O)[nH]c2ccccc12)C(=O)N=Nc1c(O)[nH]c2ccccc12	H37Rv		BACTEC	MIC bound		>12.5 µg/mL
CCCCC(CC)CN1CN(CC(CC)CCCC)CC(C)(NCCNC2CCC(C)CC2)C1				MIC		25 µM
CCOC(=O)CNC(N)=O	H37Rv			MIC		>100 µg/mL
CC(CO)NCCN[C@@H]1C[C@@H]2C[C@H]([C@H]1C)C2(C)C				MIC		12.5 µM
O=C1C=C(Nc2ccc(Cl)cc2)c2ccccc2C1=O	H37Rv		resazurin	MIC bound		<6.25 µg/mL
CCCNCCNC[C@H](C)O				MIC		50 µM
CCCCCCCCCCCCCCCCNC(=S)NCCCCCCCCCCCCCCCC	H37Rv			MIC		>100 µg/mL
CC(C)c1ccc2c(c1)CC[C@H]1[C@](C)(CNCCNCCCc3ccccc3)CCC[C@]21C				MIC		25 µM
Cc1ccc(O)cc1-c1cc(O)ccc1C	H37Rv			MIC		>100 µg/mL
Cc1cc(=O)oc2c1ccc1occc(=O)c12	H37Rv		BACTEC	inhibition	12.5 µg/mL	18%
O=C(O)CCCCOc1ccccc1	H37Rv			MIC		>100 µg/mL
c1ccc(C(CNCCNC23CC4CC(CC(C4)C2)C3)c2ccccc2)cc1				MIC		37.5 µM
C[N+]12CN3CN(C1)S(=O)(=O)N(C3)C2.[I-]	H37Rv		BACTEC	inhibition	12.5 µg/mL	21%
CC1(C)[C@H]2CC[C@@H](CNCCNCCc3ccccc3F)[C@@H]1C2				MIC		50 µM
CC(=O)CN(C)c1ccccc1	H37Rv			MIC		>100 µg/mL
CC(C)=CC/C(C)=C/CNCCNC(c1ccccc1)c1ccccc1				MIC		12.5 µM
Cc1cc2c(C(C)C)c(O)c(O)c(C=O)c2c(O)c1-c1c(C)cc2c(C(C)C)c(O)c(O)c(C=O)c2c1O	H37Rv			MIC		>100 µg/mL
CO[C@@]12[C@H](COC(N)=O)C3=C(C(=O)C(C)=C(N)C3=O)N1C[C@H]1[C@@H]2N1C(=O)C1N2C(=O)[C@@H](NC(=O)Cc3ccccc3)[C@H]2SC1(C)C	H37Rv		BACTEC	MIC bound		≤12.5 µg/mL
CCCCCCCCCCCCCCCCCCNCCNC1CCC1				MIC		50 µM
CC(C)CC(C)NCCNCc1ccccc1F				MIC		50 µM
O=[N+]([O-])c1ccc(N2CCN(Cc3ccccc3)CC2)c2c1no[n+]2[O-]	H37Rv		BACTEC	MIC		0.78 µg/mL
O=C(Nc1ccccn1)c1cccnc1	H37Rv			MIC		100 µg/mL
CC(C)O/N=C/c1cc(NC(=S)OC(C)C)ccc1Cl	H37Rv		BACTEC	inhibition	12.5 µg/mL	93%
O=[N+]([O-])c1c(Cl)ccc2cccnc12	H37Rv			MIC		100 µg/mL
C=CCNCCNC1(C)CN(CC(CC)CCCC)CN(CC(CC)CCCC)C1				MIC		12.5 µM
CC(C)C1(C)C(=O)N(C)C(=O)N1Br	H37Rv		BACTEC	inhibition	12.5 µg/mL	5%
CCCCCCCCCCCNCCNCC(O)c1ccccc1				MIC		25 µM
CCC(N)C(=O)NC(CO)C(=O)O	H37Rv		BACTEC	inhibition	12.8 µg/mL	24%
CCOC(=O)C1CSC(CCCOc2ccccc2)/C1=N\O	H37Rv			MIC		>100 µg/mL
O/N=C/c1cnccn1	H37Rv		BACTEC	MIC bound		>12.5 µg/mL
Cc1ccnc(N)n1	H37Rv			MIC		>100 µg/mL
Fc1cccc(NC(=S)SCc2ccco2)c1	H37Rv		BACTEC	MIC bound		≤128 µg/mL
CC(C)CC(C)NCCNCCC(c1ccccc1)c1ccccc1				MIC		6.25 µM
CCCCC(CC)CN1CN(CC(CC)CCCC)CC(C)(NCCNCCF)C1				MIC		12.5 µM
CC1(C)OCC2OC3(CO)NP(=O)(N(CCCl)CCCl)OC3C2O1	H37Rv		BACTEC	inhibition	12.5 µg/mL	-6%
COC(=O)c1ccc(N(C)C)cc1	H37Rv			MIC		>100 µg/mL
CN(Cc1ccc(Cl)cc1)C(=S)SCc1cccs1	H37Rv		BACTEC	MIC		32 µg/mL
CNc1nc(Cl)nc(N(C)C)n1	H37Rv			MIC		>100 µg/mL
c1ccc2c(c1)CC(NCCNC1C3CC4CC(C3)CC1C4)C2				MIC		25 µM
C/C(=N\NC(=O)c1ccncc1)C(F)(F)F	H37Rv	VERO		MIC		>0.12 µg/mL
Cc1ccc(OCC(=O)O)cc1	H37Rv			MIC		>100 µg/mL
OCc1ccc2ccc3ccc(CO)nc3c2n1	H37Rv		BACTEC	inhibition	12.5 µg/mL	74%
Cc1ccccc1C(=O)O	H37Rv			MIC		50 µg/mL

3 of the rows above, restated:

| structure | strain | cell line | read by | endpoint | dose | value |
|---|---|---|---|---|---|---|
| O=C(Nc1ccccn1)c1cccnc1 | H37Rv |  |  | MIC |  | 100 µg/mL |
| CCCCCCCCCCCCCCCCCCNCCNC1CCC1 |  |  |  | MIC |  | 50 µM |
| CCCCC(CC)CN1CN(CC(CC)CCCC)CC(C)(NCCNCCF)C1 |  |  |  | MIC |  | 12.5 µM |